Results published in US7030140B2, “Substituted benzimidazole antiviral agents” (Bristol-Myers Squibb Company, priority 1998, dated 2006).
Some compounds may have been tested in ways that are not shown here.

How the values were obtained:
[1] = tested on: respiratory syncytial virus Long strain; settings: 4 μg/mL of compound; RSV Long strain-infected HEp-2 cells; compound added 1 hour post infection; 4 days; MTT
[2] = tested on: HEp-2 (ATCC CCL 23) cells; experiment: Cellular toxicity, MTT staining in uninfected HEp-2 cells; settings: concentration giving normalized OD540 half that of untreated uninfected cells

SMILES	% Cell protection at 4 μg/mL [1] [%]	CC50 [2] [µM]
c1ccc2c(c1)nnn2Cc1nc2ccccc2n1CCN1CCCC1	90	80
CN(C)CCn1c(Cn2nnc3ccccc32)nc2cc(Cl)c(Cl)cc21	97	18
CC(C)N(CCn1c(Cn2nnc3ccccc32)nc2ccccc21)C(C)C	55	42
CN1CCC[C@H]1Cn1c(Cn2nnc3ccccc32)nc2ccccc21	53	24
c1ccc2c(c1)nnn2Cc1nc2ccccc2n1CCN1CCCCC1	92	–
CN1CCC[C@@H]1Cn1c(Cn2nnc3ccccc32)nc2ccccc21	54	105
c1ccc2nn(Cc3nc4ccccc4n3CCN3CCCCCC3)nc2c1	77	–
Cc1cc2nc(Cn3nnc4ccccc43)n(CCN(C)C)c2cc1C	100	92
c1ccc2nn(Cc3nc4ccccc4n3CCN3CCCC3)nc2c1	92	140
c1ccc2c(c1)nnn2Cc1nc2ccccc2n1CCN1CCCCCC1	73	67
c1ccc2nn(Cc3nc4ccccc4n3CCN3CCCCC3)nc2c1	87	65
NCCn1c(Cn2nnc3ccccc32)nc2ccccc21	81	86
Cc1cc2nnn(Cc3nc4ccccc4n3CCN(C)C)c2cc1C	90	118
CNCCn1c(Cn2nnc3ccccc32)nc2ccccc21	100	74
